In patent US5112519A, “Process for production of biodegradable surfactants and compositions thereof” (Mobil Oil Corporation, priority 1989, dated 1992):

Tested on: inoculum from Mobil Technical Center and Paulsboro refinery waste treatment plants
Experiment: Microbiological conversion of tridecanols to carbon dioxide

CCCCCCCCCCCCCO [1-Tridecanol]
cumulative % biodegraded to carbon dioxide (2 days incubated): 26.3%
cumulative % biodegraded to carbon dioxide (7 days incubated): 36.3%
cumulative % biodegraded to carbon dioxide (14 days incubated): 63.4%
cumulative % biodegraded to carbon dioxide (21 days incubated): 68.3%
cumulative % biodegraded to carbon dioxide (28 days incubated): 76.6%
